# Reference: ChEMBL document CHEMBL4495565, “Cytopathic SARS-Cov2 screening on VERO-E6 cells in a large repurposing effort” (2020)
# Tested on: SARS-CoV-2
# Assay: microbe, parasite or virus in culture
# Format: functional, organism-based, Chlorocebus sabaeus
# Conditions: Severe acute respiratory syndrome coronavirus 2, Vero C1008, 48 h
compound,measurement,value
O=C(O)Cc1cccc(OCCCN(Cc2cccc(C(F)(F)F)c2Cl)CC(c2ccccc2)c2ccccc2)c1,IC50,27.7 µM
